Source: patent US7763751B2 (priority 2003, dated 2010)

Target: PrP106-126 (Homo sapiens, UniProt P04156)
Test: Inhibition of PrP 106-126 spontaneous aggregation (HPLC assay)
Conditions: for potency in inhibiting PrP106-126 fibrils as compared to compound (3): comparison with known compound (3); for anti-aggregating properties against PrP106-126: in words; for IC50: read-out: PrP106-126 Anti-aggregation (HPLC assay) IC50, peptide 500 μM, pH 7.4, 24 h at 37° C.

| Molecule | potency in inhibiting PrP106-126 fibrils as compared to compound (3) | anti-aggregating properties against PrP106-126 | IC50 [µM] |
| --- | --- | --- | --- |
| CONC(C)Cc1ccc(O)c(O)c1 (stereo not shown) [Compound 1, N-(1-methyl-2-(3,4-dihydroxy-phenyl)-ethyl)-O-methyl-hydroxylamine] | equally potent | significant anti-aggregating properties | 76 |
| CCCN(OCC)C1CCc2c(ccc(O)c2O)C1 (stereo not shown) [Compound 2, N-(5,6-dihydroxy-1,2,3,4-tetrahydro-naphthalene-2-yl)-N-propyl-O-ethyl-hydroxylamine] | significantly more potent | significant anti-aggregating properties | 20 |
| trans-N-(5,8-hydroxy-3-methyl-1,2,3,4-tetrahydro-naphtalene-2yl)-N,N-dipropyl-amine |  |  | 75 |
